Results: patent US20240122867A1, “CORONAL PROTEIN-COATED NANOPARTICLES AND USES THEREOF” (UNIVERSITY OF CENTRAL FLORIDA RESEARCH FOUNDATION, INC., priority 2021, published 2024)

B1: Pregnancy zone protein (protein, UniProt Q61838 25-1495, looked up)
Pregnancy zone protein: ATAKPQYVVLVPSEVYSGVPEKACVSLNHVNETVMLSLTLEYAMQQTKLLTDQAVDKDSFYCSPFTISGSPLPYTFITVEIKGPTQRFIKKKSIQIIKAESPVFVQTDKPIYKPGQIVKFRVVSVDISFRPLNETFPVVYIETPKRNRIFQWQNIHLAGGLHQLSFPLSVEPALGIYKVVVQKDSGKKIEHSFEVKEYVLPKFEVIIKMQKTMAFLEEELPITACGVYTYGKPVPGLVTLRVCRKYSRYRSTCHNQNSMSICEEFSQQADDKGCFRQVVKTKVFQLRQKGHDMKIEVEAKIKEEGTGIELTGIGSCEIANALSKLKFTKVNTNYRPGLPFSGQVLLVDEKGKPIPNKNITSVVSPLGYLSIFTTDEHGLANISIDTSNFTAPFLRVVVTYKQNHVCYDNWWLDEFHTQADHSATLVFSPSQSYIQLELVFGTLACGQTQEIRIHYLLNEDIMKNEKDLTFYYLIKARGSIFNLGSHVLSLEQGNMKGVFSLPIQVEPGMAPEAQLLIYAILPNEELVADAQNFEIEKCFANKVNLSFPSAQSLPASDTHLKVKAAPLSLCALTAVDQSVLLLKPEAKLSPQSIYNLLPGKTVQGAFFGVPVYKDHENCISGEDITHNGIVYTPKHSLGDNDAHSIFQSVGINIFTNSKIHKPRFCQEFQHYPAMGGVAPQALAVAASGPGSSFRAMGVPMMGLDYSDEINQVVEVRETVRKYFPETWIWDLVPLDVSGDGELAVKVPDTITEWKASAFCLSGTTGLGLSSTISLQAFQPFFLELTLPYSVVRGEAFTLKATVLNYMSHCIQIRVDLEISPDFLAVPVGGHENSHCICGNERKTVSWAVTPKSLGEVNFTATAEALQSPELCGNKLTEVPALVHKDTVVKSVIVEPEGIEKEQTYNTLLCPQDTELQDNWSLELPPNVVEGSARATHSVLGDILGSAMQNLQNLLQMPYGCGEQNMVLFVPNIYVLNYLNETQQLTEAIKSKAINYLISGYQRQLNYQHSDGSYSTFGNHGGGNTPGNTWLTAFVLKAFAQAQSHIFIEKTHITNAFNWLSMKQKENGCFQQSGYLLNNAMKGGVDDEVTLSAYITIALLEMPLPVTHSAVRNALFCLETAWASISQSQESHVYTKALLAYAFALAGNKAKRSELLESLNKDAVKEEDSLHWQRPGDVQKVKALSFYQPRAPSAEVEMTAYVLLAYLTSESSRPTRDLSSSDLSTASKIVKWISKQQNSHGGFSSTQDTVVALQALSKYGAATFTRSQKEVLVTIESSGTFSKTFHVNSGNRLLLQEVRLPDLPGNYVTKGSGSGCVYLQTSLKYNILPVADGKAPFALQVNTLPLNFDKAGDHRTFQIRINVSYTGERPSSNMVIVDVKMVSGFIPMKPSVKKLQDQPNIQRTEVNTNHVLIYIEKLTNQTLGFSFAVEQDIPVKNLKPAPIKVYDYYETDEFTVEEYSAPFSDGSEQGNA
B2: Inter-alpha-trypsin inhibitor heavy chain H3 (protein, UniProt Q61704 34-649, looked up)
Inter-alpha-trypsin inhibitor …: SLPEGVVDGIEVYSTKISCKVTSRFAHNVVTTRAVNRADTAKEVSFDVELPKTAFITNFTLTIDGVTYPGNVKEKEVAQKQYEKAVSQGKTAGLVKASGRKLEKFTVSVNVAAGSKVTFELTYEELLKRNKGKYEMYLKVQPKQLVRHFEIDAHIFEPQGISMLDAEASFITNDLLGSALTKSFSGKKGHVSFKPSLDQQRSCPTCTDSLLNGDFTIVYDVNRESPGNVQIVNGYFVHFFAPQGLPVVPKNIVFVIDVSGSMSGRKIQQTREALLKILDDVKEDDYLNFILFSTDVTTWKDHLVQATPANLKEAKTFVKNIHDQSMTNINDGLLKGIEMLNKAREDHTVPERSTSIIIMLTDGDANTGESRPEKIQENVRNAIGGKFPLYNLGFGNNLNYNFLETLALENHGLARRIYEDSDANLQLQGFYEEVANPLLTNVEVEYPENAILDLTRNSYPHFYDGSEIVVAGRLVDRNMDNFKADVKGHGALNDLTFTEEVDMEEMDAALKEQGYIFGDYIERLWAYLTIEQLLEKRKNAKGDEKENITAEALDLSLKYHFVTPLTSMVVTKPEDNEDQTSIADKPGEEAIAETTTMSFLTTQQSSQSPYYYVDGD
B3: Apolipoprotein A-I (protein, UniProt Q00623 25-264, looked up)
Apolipoprotein A-I: DEPQSQWDKVKDFANVYVDAVKDSGRDYVSQFESSSLGQQLNLNLLENWDTLGSTVSQLQERLGPLTRDFWDNLEKETDWVRQEMNKDLEEVKQKVQPYLDEFQKKWKEDVELYRQKVAPLGAELQESARQKLQELQGRLSPVAEEFRDRMRTHVDSLRTQLAPHSEQMRESLAQRLAELKSNPTLNEYHTRAKTHLKTLGEKARPALEDLRHSLMPMLETLKTQVQSVIDKASETLTAQ
B4: Afamin (protein, UniProt O89020 22-608, looked up)
Afamin: LPTKPQDVDHFNATQKFIDENTTYLAIIAFSQYVQEASFDEVETLVKVMLDYRDRCWADNTLPECSKTANDAIQDMLCDMEGLPQKHNFSHCCGKAGFPRRLCFFYNKKANVGFLPPFPTLDPEEKCQAYKNNSESFLHLYMYEVARRNPFVFAPVLLAVAAWFEEAATTCCEQQQKATCFQAKAAPITQYLKASSSYQRNVCGALIKFGPKVLNSINVAVFSKKFPKIGFKDLTTLLEDVSSMYEGCCEGDVVHCIRSQSQVVNHICSKQDSISSKIKVCCEKKTLEREACIINANKDDRPEGLSLREAKFTESENVCQERDSDPDKFFAEFIYEYSRRHPDLSTPELLRITKVYMDFLEDCCSRENPAGCYRHVEDKFNETTQRSLAMVQQECKQFQELGKDTLQRHFLVKFTKAAPQLPMEELVSLSKEMVAALTTCCTLSDEFACVDNLADLVLGELCGVNTNRTINPAVDHCCKTDFAFRRHCFEHLKADTTYELPSVSALVSALHTDWCQPRKEDLQNKKHRFLVNLVKWMPGITDEEWLCLFTKFTAAREECSEVQEPESCFSPESSKTGDESQATEKQR
B5: Inter-alpha-trypsin inhibitor heavy chain H2 (protein, UniProt Q61703 55-702, looked up)
Inter-alpha-trypsin inhibitor …: SLPEESGEETDTVDPVTLYSYKVQSTITSRVATTTIQSKLVNNSPLPQSVVFDVQIPKGAFISNFTMTVNGMTFTSSIKEKTVGRALYSQARAKGKTAGWVRSRTLDMENFNTEVNIPPGAKVQFELHYQEVKWRKLGSYEHKIHLQPGKLAKHLEVNVWIIEPQGMRFLHVPDTFEGHFQGVPVISKGQQKAHVSFKPTVAQQRKCPNCTETAVNGELVVMYDVNREEKAGELEVFNGYFVHFFAPENLDPIPKNILFVIDVSGSMWGIKMKQTVEAMKTILDDLRTDDQFSVVDFNHNVRTWRNDLVSATKTQIADAKRYIEKIQPSGGTNINEALLRAIFILNEASNMGLLNPDSVSLIILVSDGDPTVGELKLSKIQKNVKQSIQDNISLFSLGIGFDVDYDFLKRLSNENRGIAQRIYGNQDTSSQLKKFYNQVSTPLLRNVQFNYPQASVTDVTQNNFHNYFGGSEIVVAGKFDPSKLTEVQSIITATSANTELVLETLSQMDDLEEFLSKDKHADPDFTKKLWAYLTINQLLAERSLAPTAAIKRKITKTILQMSLDHHIVTPLTAMVIENDAGDERMLADSPPQDHSCCSGALYYGTKVASGPIPSWANPSPTPMSAMLAVGAKPLESTPPTHLNQVEND
B6: Phosphatidylinositol-glycan-specific phospholipase D (protein, UniProt O70362 24-837, looked up)
Phosphatidylinositol-glycan-sp …: CGLSTHVEIGHRALEFLRLQDGRINYKELILEHQDAYQAGTVFPDAFYPSICKRGKYHDVSERTHWTPFLNASIHYIRENYPLPWEKDTEKLVAFLFGITSHMVADLSWHNLGFLRTMGAIDFYNSYSDAHSAGDFGGDVLSQFEFNFNYLSRRWYVPVRDLLRIYDNLYGRKVITKDVLVDCTYLQFLEMHGEMFAVSKLYSTYSTKSPFLVEQFQDYFLGGLDDMAFWSTNIYRLTSFMLENGTSDCNLPENPLFISCDGRNHTLSGSKVQKNDFHRNLTMFISRDIRKNLNYTERGVFYSTGSWARPESVTFMYQTLERNLRLMLAGSSQKNLNHVSSPSASYTLSVPYARLGWVMTSADLNQDGHGDLVVGAPGYSHPGRFQIGRVYIIYGNDLGLPPIDLDLNKEGILEGFQPSGRFGSALAVLDFNQDGLPDLAVGAPSVGSGQLTYNGSVYVYYGSQQGRLSSSPNVTISCKDTYCNLGWTLLATDADGDGRHDLVISSPFAPGGRKQKGIVATFYSHPRRNDKELLTLEEADWKVNGEEDFSWFGYSLHGVTVANRSLLLIGSPTWKNVSRMARSSHKKNQEEKSLGKVYGYFLPNRQSTITISGDKAMGKLGTSLSSGYVRVNGTLTQVLLVGAPTHDDVSKMAFLTMTLHQGGATRMYELAPEKTQPALLSTFSGDRRFSRFGSVLHLTDLDDDGLDEIIMAAPLRITDVTSGLLGGEDGRVYIYNGMYTTLGDMTGKCKSWMTPCPEEKAQYVLTSPEASSRFGSSLVSVRSKGRNQVVVAAGRSSWGARLSGALHVYSFSSD
B7: Vitronectin (protein, UniProt P29788 20-478, looked up)
Vitronectin: DQESCKGRCTQGFMASKKCQCDELCTYYQSCCADYMEQCKPQVTRGDVFTMPEDDYWSYDYVEEPKNNTNTGVQPENTSPPGDLNPRTDGTLKPTAFLDPEEQPSTPAPKVEQQEEILRPDTTDQGTPEFPEEELCSGKPFDAFTDLKNGSLFAFRGQYCYELDETAVRPGYPKLIQDVWGIEGPIDAAFTRINCQGKTYLFKGSQYWRFEDGVLDPGYPRNISEGFSGIPDNVDAAFALPAHRYSGRERVYFFKGKQYWEYEFQQQPSQEECEGSSLSAVFEHFALLQRDSWENIFELLFWGRSSDGAREPQFISRNWHGVPGKVDAAMAGRIYVTGSLSHSAQAKKQKSKRRSRKRYRSRRGRGHRRSQSSNSRRSSRSIWFSLFSSEESGLGTYNNYDYDMDWLVPATCEPIQSVYFFSGDKYYRVNLRTRRVDSVNPPYPRSIAQYWLGCPTSEK
B8: Clusterin (protein, UniProt Q06890 22-448, looked up)
Clusterin: EQEVSDNELQELSTQGSRYINKEIQNAVQGVKHIKTLIEKTNAERKSLLNSLEEAKKKKEDALEDTRDSEMKLKAFPEVCNETMMALWEECKPCLKHTCMKFYARVCRSGSGLVGQQLEEFLNQSSPFYFWMNGDRIDSLLESDRQQSQVLDAMQDSFARASGIIDTLFQDRFFARELHDPHYFSPIGFPHKRPHFLYPKSRLVRSLMSPSHYGPPSFHNMFQPFFEMIHQAQQAMDVQLHSPAFQFPDVDFLREGEDDRTVCKEIRRNSTGCLKMKGQCEKCQEILSVDCSTNNPAQANLRQELNDSLQVAERLTEQYKELLQSFQSKMLNTSSLLEQLNDQFNWVSQLANLTQGEDKYYLRVSTVTTHSSDSEVPSRVTEVVVKLFDSDPITVVLPEEVSKDNPKFMDTVAEKALQEYRRKSRAE

test system: coronal proteins on NPs; design: species or system mouse; conditions: HBPE-NPs incubated 1 h with IAV day 5 (V5) mouse sera, 20:1 NP:sera, centrifuged and washed

Row | Molecule | V5 Sera_Nanoparticles Quantitative Value (Normalized Total Spectra)
1 | B1 | 144.69
2 | B2 | 16.319
3 | B3 | 102.26
4 | B4 | 17.407
5 | B5 | 17.407
6 | B6 | 15.231
7 | B7 | 15.231
8 | B8 | 15.231

same assay, conditions: IAV day 5 (V5) mouse sera alone, no NPs (sera-only control)

Row | Molecule | V5 Sera Alone (Control) Quantitative Value (Normalized Total Spectra)
9 | B1 | 112.88
10 | B2 | 11.103
11 | B3 | 112.88
12 | B4 | 12.028
13 | B5 | 14.804
14 | B6 | 25.906
15 | B7 | 59.215
16 | B8 | 37.934
